From paper PMC9628480, “Discovery and structural characterization of chicoric acid as a SARS-CoV-2 nucleocapsid protein ligand and RNA binding disruptor” (Scientific Reports, 2022)
Where two headings read alike, the source gives them in different places.

Tests used:
[1] = target: T1, SARS-CoV-2 N protein-RNA1 interaction (Severe acute respiratory syndrome coronavirus 2, UniProt P0DTC9); test: biochemical; details: IC50 for blocking the N protein-RNA1 interaction
[2] = target: T1, SARS-CoV-2 N protein-RNA1 interaction; details: read-out: IC50 for blocking the N protein-RNA1 interaction

With `O=C(O)C[C@@H]1C(=O)O[C@H]2[C@H](OC(=O)c3cc(O)c(O)c(O)c3)[C@@H](OC(=O)c3cc(O)c(O)c4c3[C@H]1[C@H](O)C(=O)O4)[C@H](OC(=O)c1cc(O)c(O)c(O)c1)O[C@@H]2COC(=O)c1cc(O)c(O)c(O)c1` [Chebulinic acid] as the molecule, how does the IC50 [1] read?
The IC50 was 0.2 µM.

Chlorophyllin A was tested. Which IC50 [2] did it give?
Its IC50 is 10.8 µM.

For Chlorophyllin B, which IC50 [2] is on record?
Its IC50 is 2.2 µM.
